Patent US20250152599A1 (priority 2020, published 2025)
Several values for one entry are separate records, joined by “and”; a condition that tells them apart may be missing. Identical values can stand only once. Like-named read-outs stand apart in the source and are kept apart here.

Legend:
HCoV 229E = conditions: for EC50: HCoV 229E in MRC5 cells, 3 days
MRC5 cells = assay: Cytotoxicity on MRC5 cells, CellTiter Glo, no virus infection; conditions: 3 days
[1] = test system: novel coronavirus (SARS-CoV-2); conditions: for FAM Ct value: 48 hours; for EC50 / Antiviral effective concentration on in vitro cell model (significant antiviral effect): Vero cell model
Vero cells = assay: CCK-8 cell proliferation-toxicity assay on Vero cells; conditions: for A450 nm value: 48 hours, replicate wells

With `O=[As]c1ccc(NC(=O)C2CCC2)cc1` (stereo not shown) the EC50 (HCoV 229E; the first test (first round)) was > 200 nM, the EC50 (HCoV 229E; the second test (second round)) was > 40000 nM and the CC50 (MRC5 cells; the first test (first round)) was > 800 nM. It also gave a CC50 (MRC5 cells; the second test (second round)) of 7640 nM.

With `O=[As]c1ccccc1` (stereo not shown) the “FAM Ct value” ([1]; first round, 1.56 nM, replicate wells, listed as phenylarsine oxide) was 19.02 and 18.28, the “FAM Ct value” ([1]; first round, 3.12 nM, replicate wells, listed as phenylarsine oxide) was 18.32 and 18.34 and the “FAM Ct value” ([1]; first round, 6.25 nM, replicate wells, listed as phenylarsine oxide) was 18.59 and 18.37. For the same molecule, the “FAM Ct value” ([1]; first round, 12.5 nM, replicate wells, listed as phenylarsine oxide) was 18.57 and 18.75, the “FAM Ct value” ([1]; first round, 25 nM, replicate wells, listed as phenylarsine oxide) was 20.35 and 20.02 and the “FAM Ct value” ([1]; first round, 50 nM, replicate wells, listed as phenylarsine oxide) was 22.91 and 22.88. For the same molecule, the “FAM Ct value” ([1]; first round, 100 nM, replicate wells, larger Ct = less virus, listed as Phenylarsine oxide) was 26.4 and 28.32, the “FAM Ct value” ([1]; first round, 200 nM) was “Cytotoxicity” and the EC50 ([1]; first round) was 20 nM. The “Antiviral effective concentration on in vitro cell model (significant antiviral effect)” value ([1]; first round, listed as Phenylarsine oxide) was “concentration of 20-100 nM”, the “Antiviral effective concentration on in vitro cell model (significant antiviral effect)” value ([1]; first round, listed as phenylarsine oxide) was 20 to 100 nM and the EC50 ([1]; read-out: EC50 for inhibiting the novel coronavirus, second round) was 19.2 nM. For the same molecule, the “FAM Ct value” ([1]; second round, 6.25 nM, replicate wells, listed as Phenylarsine oxide) was 14.79 and 14.96, the “FAM Ct value” ([1]; second round, 25 nM, replicate wells, listed as Phenylarsine oxide) was 15.94 and 16.51 and the “FAM Ct value” ([1]; second round, 50 nM, replicate wells, listed as Phenylarsine oxide) was 17.19. For the same molecule, the “FAM Ct value” ([1]; second round, 100 nM, replicate wells, listed as Phenylarsine oxide) was 20.31 and 19.24, the “FAM Ct value” ([1]; second round, 200 nM, replicate wells, listed as Phenylarsine oxide) was 27.51 and 29.48 and the “FAM Ct value” ([1]; second round, 400 nM, replicate wells, listed as Phenylarsine oxide) was 26.64 and 27.19. The “FAM Ct value” ([1]; second round, 800 nM, replicate wells, listed as Phenylarsine oxide) was 31.52 and 28.87, the “SI (CC50/EC50)” value (HCoV 229E; the first test) was 4.64 and the EC50 (HCoV 229E; the first test (first round)) was 55.4 nM. The “SI (CC50/EC50)” value (HCoV 229E; the second test) was 1.86, the EC50 (HCoV 229E; the second test (second round)) was 37 nM and the A450 nm value (Vero cells; first round, 1.56 nM, listed as phenylarsine oxide) was 1.77 and 1.94. The A450 nm value (Vero cells; first round, 3.12 nM, listed as phenylarsine oxide) was 1.75 and 2.06, the A450 nm value (Vero cells; first round, 6.25 nM, listed as phenylarsine oxide) was 1.79 and 1.86 and the A450 nm value (Vero cells; first round, 12.5 nM, listed as phenylarsine oxide) was 1.75 and 1.95. The A450 nm value (Vero cells; first round, 25 nM, listed as phenylarsine oxide) was 1.80 and 1.95, the A450 nm value (Vero cells; first round, 50 nM, listed as phenylarsine oxide) was 1.90 and 1.98 and the A450 nm value (Vero cells; first round, 100 nM, listed as phenylarsine oxide) was 1.71 and 1.86. The Cell viability % (Vero cells; first round, 200 nM) was 50%, the cell death (Vero cells; first round, 200 nM and above) was 50% and the A450 nm value (Vero cells; first round, 200 nM, listed as phenylarsine oxide) was 1.00 and 0.68. For the same molecule, the Cell viability % (Vero cells; first round, 100 to 1.56 nM (text: below 100 nM), listed as Phenylarsine oxide) was “greater than 90%”, the Cell viability % (Vero cells; first round, 100 to 1.56 nM (text: below 100 nM), listed as phenylarsine oxide) was “cell viability greater than 90%” and the CC50 (Vero cells; first round, Vero cells) was > 200 nM. The cell viability (Vero cells; second round, 100 nM and below) was “greater than 90%”, the cell death rate (Vero cells; second round, 400 nM and above) was ≥ 50% and the CC10 (Vero cells; second round, Vero cells) was 100 nM. It also gave a CC50 (Vero cells; second round, Vero cells) of 380 nM and a CC50 (MRC5 cells; the second test (second round)) of 68.9 nM.

With `CC(C)CC(=O)Nc1ccc([As]=O)cc1` (stereo not shown) the EC50 (HCoV 229E; the first test (first round)) was > 200 nM, the EC50 (HCoV 229E; the second test (second round)) was > 40000 nM and the CC50 (MRC5 cells; the first test (first round)) was > 800 nM. The CC50 (MRC5 cells; the second test (second round)) was 6240 nM.
